ChEMBL document CHEMBL2434960 (Eur J Med Chem, 2013)

Target: Replicase polyprotein 1a (Severe acute respiratory syndrome-related coronavirus, UniProt P0C6U8)

COc1cccc2[nH]c(C(=O)N[C@@H](CC(C)C)C(=O)N[C@@H](C[C@@H]3CCNC3=O)C(=O)c3nc4ccccc4s3)cc12
Kd: 16 nM
